Anti-infective test results gathered from many reports (values: NIAID ChemDB through PubChem).

Shared fields: target-level tests; organism: Hepatitis C virus; protein: Nonstructural protein 5B

Blank or dashed fields: not listed here. ICn: concentration for n% inhibition. Two numbers with a dash give a range or band. Neighbouring rows are from separate reports. Percent inhibition refers to the dose given; in toxicity tests it is the harm to the cells.

structure | strain or isolate | method | endpoint | tested at | value
CNC(=O)c1c(-c2ccc(F)cc2)oc2cc(N(CCF)S(C)(=O)=O)c(OC)cc12 | - | - | IC50 | - | ≤0.5 µM
O=C1OC(CCc2ccc(O)cc2)(C2CCCC2)CC(O)=C1Sc1cccc2ccccc12 | - | - | IC50 | - | 1–10 µM
COc1nc(Nc2ccc3[nH]ncc3c2)nc(N2CCN(C)CC2)n1 | - | - | inhibition | 10 µg/mL | 45%
CNC(=O)c1c(-c2ccc(F)cc2)oc2cc(CO)c(OC(C)C)cc12 | - | - | IC50 | - | ≤0.5 µM
COc1nc(NCCCn2ccnc2)nc(Nc2ccc3cn[nH]c3c2)n1 | - | - | inhibition | 10 µg/mL | 66%
CNC(=O)c1c(-c2ccc(F)cc2)oc2cc(N3CCOCC3)c(OCc3ccc(OC)cc3)cc12 | - | - | IC50 | - | ≤0.5 µM
COc1cc(OC)c(CCC2(C3CCCC3)CC(O)=C(Sc3nccs3)C(=O)O2)cc1Cl | - | - | IC50 | - | <1 µM
CNC(=O)c1c(-c2ccc(F)cc2)oc2cc(N(C)S(C)(=O)=O)c(OCc3ccc(S(C)(=O)=O)cc3)cc12 | - | - | IC50 | - | ≤0.5 µM
Cc1cc(SC2=C(O)CC(CCc3ccc(O)cc3)(C3CCCC3)OC2=O)c(C(C)(C)C)cc1OS(=O)(=O)N1CCN(C)CC1 | - | - | IC50 | - | 1–10 µM
COc1nc(NCCO)nc(Nc2ccc3cn[nH]c3c2)n1 | - | - | inhibition | 0.1 µg/mL | 37%
CNC(=O)c1c(-c2ccc(F)cc2)oc2cc(N(C)S(C)(=O)=O)c(OCc3nsc(N(C)C4CC4)n3)cc12 | - | - | IC50 | - | ≤0.5 µM
COc1c(-c2ccc3cc(NS(C)(=O)=O)ccc3c2)cc(-n2ccc(=O)[nH]c2=O)cc1C(C)(C)C | GT 1b#1 | nucleotide incorporation | IC50 | - | 0.0043 µM
COc1nc(NCCO)nc(Nc2ccc3[nH]ncc3c2)n1 | - | - | inhibition | 10 µg/mL | 52%
O=C1C=C(O)CC(CCc2ccc(OCc3ccc(C(F)(F)F)nc3)cc2)(C2CCCC2)O1 | - | - | IC50 | - | 10–50 µM
CNC(=O)c1c(-c2ccc(F)cc2)oc2cc(N3CCOCC3)c(OCc3ccncc3)cc12 | - | - | IC50 | - | ≤0.5 µM
COc1ccc(CCC2(C3CCCC3)CC(=O)C(C(=O)Cc3cccnc3)C(=O)O2)cc1 | - | - | IC50 | - | 1–10 µM
COc1nc(NCCCN2CCOCC2)nc(Nc2ccc3[nH]ncc3c2)n1 | - | - | inhibition | 0.1 µg/mL | 20%
CS(=O)(=O)c1ccc(CCC2(C3CCCC3)CC(=O)CC(=O)O2)cc1 | - | - | IC50 | - | 1–10 µM
COc1nc(Nc2ccc3[nH]ncc3c2)nc(N2CCOCC2)n1 | - | - | inhibition | 0.1 µg/mL | 43%
CNC(=O)c1c(-c2ccc(F)cc2)oc2cc(N(Cc3csc(C)n3)S(C)(=O)=O)c(OC(C)C)cc12 | - | - | IC50 | - | ≤0.5 µM
O=C1C=C(O)CC(CCc2cc3ccccc3o2)(C2CCCC2)O1 | - | - | IC50 | - | 10–50 µM

For reference, 2 entries again:

structure,strain or isolate,method,endpoint,tested at,value
CNC(=O)c1c(-c2ccc(F)cc2)oc2cc(N(C)S(C)(=O)=O)c(OCc3nsc(N(C)C4CC4)n3)cc12,-,-,IC50,-,≤0.5 µM
COc1c(-c2ccc3cc(NS(C)(=O)=O)ccc3c2)cc(-n2ccc(=O)[nH]c2=O)cc1C(C)(C)C,GT 1b#1,nucleotide incorporation,IC50,-,0.0043 µM